Results of unrelated studies side by side (data: NIAID ChemDB).

All rows: growth or infection tests; species: Aspergillus fumigatus

A number after MIC or MFC names an inhibition level or a share of isolates.

compound | strain or isolate | endpoint | mutations | method | setting | dose | result
CCC(C)n1ncn(-c2ccc(N3CCN(c4ccc(OC[C@H]5CO[C@](Cn6cncn6)(c6ccc(Cl)cc6Cl)O5)cc4)CC3)cc2)c1=O |  | MIC80 |  | broth dilution |  |  | >64 µg/mL
CC(=O)OC[C@H]1O[C@@H](n2nc(-c3cccnc3)n(/N=C/c3ccc(Cl)cc3)c2=S)[C@H](OC(C)=O)[C@@H](OC(C)=O)[C@@H]1OC(C)=O |  | zone |  | agar diffusion / agar |  | 1 mg/mL | 0 mm
COc1cc(O)c2c(c1)C1=C[C@H](O)[C@@H](O)C[C@]1(C)OC2=O | CGMCC 3.5835 | EC50 |  | resazurin |  |  | >250 µM
C[C@@H](c1ncncc1F)[C@](O)(Cn1cncn1)c1ccc(F)cc1F |  | MIC80 |  | broth dilution |  |  | >64 µg/mL
COc1cc2occc2c2oc(-c3ccccc3)cc(=O)c12 |  | zone |  | agar diffusion |  | 50 µg/disc | 16.5 mm
CN(C/C=C/C#CC(C)(C)C)Cc1cccc2ccccc12 | 60 isolates | Geometric mean MIC |  |  |  |  | 19.03 µg/mL
C=CCSCC=C | 28 isolates | MIC80 |  |  |  |  | 54 µg/mL
C[C@H]1[C@H](O)[C@@H](C)/C=C/C=C/C=C/C=C/C=C/C=C/C=C/[C@H](O[C@@H]2O[C@H](C)[C@@H](O)[C@H](N)[C@@H]2O)C[C@@H]2O[C@](O)(C[C@@H](O)C[C@@H](O)CC[C@H](O)[C@@H](O)C[C@@H](O)CC(=O)O[C@H]1C)C[C@H](O)[C@H]2C(=O)O | AB16.4 | inhibition |  | broth dilution |  | 1 µg/mL | 0%
C[C@@H]1[C@H](O)[C@@H](C)/C=C/C=C/C=C/C=C/C=C/C=C/C=C/[C@H](O[C@@H]2O[C@H](C)[C@@H](O)[C@H](N)[C@@H]2O)C[C@@H]2O[C@](O)(C[C@@H](O)C[C@@H](O)[C@H](O)CC[C@@H](O)C[C@@H](O)CC(=O)O[C@H]1C)C[C@H](O)[C@H]2C(=O)O |  | EC50 |  | broth dilution |  |  | 0.86 µg/mL
COc1cccc(OC)c1O |  | MIC50 |  | agar |  |  | >1000 µg/mL
Oc1cc(O)c2c(c1)O[C@H](c1ccc(O)c(O)c1)[C@@H](O)C2 |  | inhibition |  |  |  | 1000 µg/mL | 95%
O=[N+]([O-])c1cc(CSc2nnnn2-c2ccc(Cl)c(Cl)c2)cc([N+](=O)[O-])c1 | 231 | EC50 |  | broth dilution | 24 h |  | >125 µM
COc1ccc(CCn2cnc3c(Cl)cccc3c2=O)cc1 | RCMB 002003 | zone |  | agar diffusion / agar |  | 10 mg/mL | 10.4 mm
O=C(/C=C/c1ccc2c(c1)OCO2)c1ccc2occc2c1O |  | zone |  | agar diffusion |  | 50 µg/disc | 0 mm
CCC(C)n1ncn(-c2ccc(N3CCN(c4ccc(OC[C@H]5CO[C@](Cn6cncn6)(c6ccc(Cl)cc6Cl)O5)cc4)CC3)cc2)c1=O | NFI 0239 | MFC |  |  |  |  | >4 µg/mL
COc1ccc(CCn2cnc3ccccc3c2=O)cc1OC | RCMB 002003 | zone |  | agar diffusion / agar |  | 10 mg/mL | 9.4 mm
C/C=C/c1ccc(O)c(OC)c1 |  | MIC100 |  | agar |  |  | 236 µg/mL
O=[N+]([O-])c1cc(C[Se]c2nnnn2Cc2ccccc2)cc([N+](=O)[O-])c1 | 231 | EC50 |  | broth dilution | 24 h |  | >500 µM
C[C@@H](c1ncncc1F)[C@](O)(Cn1cncn1)c1ccc(F)cc1F | NFI 0239 | MFC |  |  |  |  | 1 µg/mL
C=CCSSCC=C | 28 isolates | MIC80 |  |  |  |  | 12 µg/mL
CC(=O)N1CCN(c2ccc(OC[C@H]3CO[C@](Cn4ccnc4)(c4ccc(Cl)cc4Cl)O3)cc2)CC1 | ATCC 26934 | MIC100 |  | broth dilution |  |  | 0.125 µg/mL
COc1cc(C)c2c(=O)c3c(O)cc(O)cc3oc2c1 | CGMCC 3.5835 | EC50 |  | resazurin |  |  | >250 µM
CN(C/C=C/C#CC(C)(C)C)Cc1cccc2ccccc12 |  | MIC90 | TR34 azole-resistant | broth dilution |  |  | 16 µg/mL
CN(C)C1=NC(=O)/C(=C/c2ccccc2)S1 | ATCC 26934 | MIC100 |  | broth dilution |  |  | >250 µg/mL
O=c1cc(-c2ccccc2)oc2c1ccc1occc12 |  | zone |  | agar diffusion |  | 50 µg/disc | 8.5 mm
COc1cc(O)c2c(c1)-c1cc(O)c(O)cc1COC2=O | CGMCC 3.5835 | EC50 |  | resazurin |  |  | >250 µM
COc1ccc(/C=C2\SC(N(C)C)=NC2=O)cc1 | ATCC 26934 | MIC100 |  | broth dilution |  |  | >250 µg/mL
Clc1ccccc1C(c1ccccc1)(c1ccccc1)n1ccnc1 | RCMB 002003 | zone |  | agar diffusion / agar |  | 10 mg/mL | 18.3 mm
C[C@@H](c1ncncc1F)[C@](O)(Cn1cncn1)c1ccc(F)cc1F |  | MIC90 |  |  |  |  | 0.5–2 µg/mL
CCCSc1ccc2nc(NC(=O)OC)[nH]c2c1 | 27 isolates | Geometric mean MIC |  |  |  |  | 0.74 µg/mL
COc1cc(C(C)=O)ccc1O |  | MIC50 |  | agar |  |  | 357 µg/mL
CC(=O)OC[C@H]1O[C@@H](Sc2ncc(-c3cccnc3)n2N)[C@H](OC(C)=O)[C@@H](OC(C)=O)[C@@H]1OC(C)=O |  | zone |  | agar diffusion / agar |  | 5 mg/mL | 1–5 mm
CCc1ccc(O)c(OC)c1 |  | MIC100 |  | agar |  |  | 628 µg/mL
C[C@H](c1ncncc1F)[C@](O)(Cn1cncn1)c1ccc(F)cc1F |  | MIC80 |  | broth dilution | clinical isolate |  | 5.73 µM
O=C(O)/C=C/c1ccc(O)c(O)c1 |  | MIC50 |  | agar |  |  | >1000 µg/mL
CCC(C)CC(C)CCCCCCCCC(=O)N[C@H]1C[C@@H](O)[C@H](NCCN)NC(=O)[C@@H]2[C@@H](O)CCN2C(=O)[C@H]([C@H](O)CCN)NC(=O)[C@H]([C@H](O)[C@@H](O)c2ccc(O)cc2)NC(=O)[C@@H]2C[C@@H](O)CN2C(=O)[C@H]([C@@H](C)O)NC1=O |  | MIC50 |  |  |  |  | 0.06–0.5 µg/mL
CCC(C)n1ncn(-c2ccc(N3CCN(c4ccc(OC[C@H]5CO[C@](Cn6cncn6)(c6ccc(Cl)cc6Cl)O5)cc4)CC3)cc2)c1=O | 156 isolates | MIC90 |  |  |  |  | 2 µg/mL
C[C@@H](n1ncc2cc(F)ccc21)[C@](O)(Cn1cncn1)c1ccc(F)cc1F | ATCC MYA-1163 | MIC90 |  |  |  |  | 0.5 µg/mL
CC(=O)OC[C@H]1O[C@@H](Sc2nnc(-c3cccnc3)n2/N=C/c2ccc(Cl)cc2)[C@H](OC(C)=O)[C@@H](OC(C)=O)[C@@H]1OC(C)=O |  | zone |  | agar diffusion / agar |  | 5 mg/mL | 1–5 mm
O=c1c2ccccc2nc(-c2ccc(Cl)cc2)n1Cc1ccccc1 | RCMB 002003 | zone |  | agar diffusion / agar |  | 10 mg/mL | 18.3 mm
COc1cc(C)ccc1O |  | MIC50 |  | agar |  |  | 115 µg/mL
OC[C@H]1O[C@@H](n2nc(-c3cccnc3)n(/N=C/c3ccccc3)c2=S)[C@H](O)[C@@H](O)[C@@H]1O |  | zone |  | agar diffusion / agar |  | 5 mg/mL | 1–5 mm
CNCCC(Oc1ccc(C(F)(F)F)cc1)c1ccccc1 | 10 clinical isolates | MFC |  |  |  |  | 156–312 µg/mL
CC(=O)OC[C@H]1O[C@@H](n2[nH]c(-c3cccnc3)nc2=S)[C@H](OC(C)=O)[C@@H](OC(C)=O)[C@@H]1OC(C)=O |  | zone |  | agar diffusion / agar |  | 1 mg/mL | 1–5 mm
COc1cc(O)c2c(c1)C1=C[C@@H](O)[C@@H](O)C[C@]1(C)OC2=O | CGMCC 3.5835 | EC50 |  | resazurin |  |  | >250 µM
O=[N+]([O-])c1cc(CSc2cccc[n+]2[O-])cc([N+](=O)[O-])c1 | 231 | EC50 |  | broth dilution | 48 h |  | >500 µM
CC(=O)OC[C@H]1O[C@@H](Sc2nnc(-c3cccnc3)n2/N=C/c2ccccc2)[C@H](OC(C)=O)[C@@H](OC(C)=O)[C@@H]1OC(C)=O |  | zone |  | agar diffusion / agar |  | 5 mg/mL | 6–10 mm
C[C@H]1[C@H](O)[C@@H](C)/C=C/C=C/C=C/C=C/C=C/C=C/C=C/[C@H](O[C@@H]2O[C@H](C)[C@@H](O)[C@H](N)[C@@H]2O)C[C@@H]2O[C@](O)(C[C@@H](O)C[C@@H](O)CC[C@H](O)[C@@H](O)C[C@@H](O)CC(=O)O[C@H]1C)C[C@H](O)[C@H]2C(=O)O |  | MIC50 |  |  |  |  | 0.25–4 µg/mL
O=C(O)c1ccccc1O |  | MIC100 |  | agar |  |  | 623 µg/mL
O=[N+]([O-])c1cc(CSc2nnnn2C2CCCCC2)cc([N+](=O)[O-])c1 | 231 | EC50 |  | broth dilution | 48 h |  | >500 µM
CC(=O)c1ccccc1O |  | MIC100 |  | agar |  |  | 106 µg/mL
Cc1cc2c(C)cc(O)cc2c(=O)o1 | CGMCC 3.5835 | EC50 |  | resazurin |  |  | >250 µM
O=C(O)c1cccc(-n2nnnc2SCc2cc([N+](=O)[O-])cc([N+](=O)[O-])c2)c1 | 231 | EC50 |  | broth dilution | 48 h |  | >500 µM
CCc1ccccc1O |  | MIC100 |  | agar |  |  | 361 µg/mL
O=[N+]([O-])c1cc(CSc2nnnn2Cc2ccccc2)cc([N+](=O)[O-])c1 | 231 | EC50 |  | broth dilution | 24 h |  | >500 µM
CC(=O)OC[C@H]1O[C@@H](n2nc(-c3cccnc3)n(N)c2=S)[C@H](OC(C)=O)[C@@H](OC(C)=O)[C@@H]1OC(C)=O |  | zone |  | agar diffusion / agar |  | 5 mg/mL | 1–5 mm
O=S(=O)(O)CCNCl | ATCC 13073 | MIC90 |  |  |  |  | 35.4 µM
O=[N+]([O-])c1cc(C[Se]c2nnnn2C2CCCCC2)cc([N+](=O)[O-])c1 | 231 | EC50 |  | broth dilution | 48 h |  | >500 µM

Again, the opening 8 rows:

compound,strain or isolate,endpoint,mutations,method,setting,dose,result
CCC(C)n1ncn(-c2ccc(N3CCN(c4ccc(OC[C@H]5CO[C@](Cn6cncn6)(c6ccc(Cl)cc6Cl)O5)cc4)CC3)cc2)c1=O,,MIC80,,broth dilution,,,>64 µg/mL
CC(=O)OC[C@H]1O[C@@H](n2nc(-c3cccnc3)n(/N=C/c3ccc(Cl)cc3)c2=S)[C@H](OC(C)=O)[C@@H](OC(C)=O)[C@@H]1OC(C)=O,,zone,,agar diffusion / agar,,1 mg/mL,0 mm
COc1cc(O)c2c(c1)C1=C[C@H](O)[C@@H](O)C[C@]1(C)OC2=O,CGMCC 3.5835,EC50,,resazurin,,,>250 µM
C[C@@H](c1ncncc1F)[C@](O)(Cn1cncn1)c1ccc(F)cc1F,,MIC80,,broth dilution,,,>64 µg/mL
COc1cc2occc2c2oc(-c3ccccc3)cc(=O)c12,,zone,,agar diffusion,,50 µg/disc,16.5 mm
CN(C/C=C/C#CC(C)(C)C)Cc1cccc2ccccc12,60 isolates,Geometric mean MIC,,,,,19.03 µg/mL
C=CCSCC=C,28 isolates,MIC80,,,,,54 µg/mL
C[C@H]1[C@H](O)[C@@H](C)/C=C/C=C/C=C/C=C/C=C/C=C/C=C/[C@H](O[C@@H]2O[C@H](C)[C@@H](O)[C@H](N)[C@@H]2O)C[C@@H]2O[C@](O)(C[C@@H](O)C[C@@H](O)CC[C@H](O)[C@@H](O)C[C@@H](O)CC(=O)O[C@H]1C)C[C@H](O)[C@H]2C(=O)O,AB16.4,inhibition,,broth dilution,,1 µg/mL,0%

ECn: concentration that inhibits the pathogen or its effect by n%. Two numbers with a dash give a range or band. Inhibition is in % at the dose shown (toxicity tests: loss of growth or viability). An empty or dashed field is not shown. Zone: diameter of growth inhibition. Lines come from different laboratories, so protocols vary.